PubChem BioAssay AID624099, ICCB-Longwood | 2012
This is an unselected part of about 21,000 reagents tested. In the full data, 497 (2.4%) are marked active. 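Higher z means weaker E2 silencing; only reporter increases were scored, and knock-downs that hurt cell survival may mask genuine repressor factors.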 Unmarked entries are inactive.

Screen: 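Host factors E2 relies on to silence an HPV18 LCR reporter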 (primary screen)
Cell system: human C33A cervical carcinoma cells (HPV-negative) stably expressing BPV1 E2 and an HPV18 LCR luciferase reporter
Knock-down reagent: siRNA pool against human genes, 40 nM
Duration: 72 h
Measurement: 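HPV18 LCR reporter light per well, converted to plate-wise z-scores that exclude control wells, and averaged over triplicate plates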
Reading the numbers: mean z-score and z-score: higher = stronger reporter signal, weaker E2 silencing
Active means: 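Mean z ≥ 2 together with z ≥ 2 in two or more of the three replicates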

Target gene	PubChem SID	mean z-score	z-score, replicate A	z-score, replicate B	z-score, replicate C
PATJ	SID134316407	0.92	1	1.09	0.68
NAT9	SID134321559	0.84	0.88	0.79	0.84
HDAC5	SID134309928	1.27	1.16	1.28	1.38
MRPL33	SID134321338	0.31	0.23	0.38	0.32
CDH8	SID134317745	-0.07	-0.58	0.06	0.31
ZNF460	SID134329491	-0.66	-0.66	-0.8	-0.53
DNM1L	SID134316389	0.07	0.03	0.09	0.1
RAB31	SID134314712	-0.57	-0.54	-0.66	-0.51
GSE1	SID134325461	1.73	1.25	2.2	1.73
IL10RB	SID134312861	0.05	-0.07	0.12	0.1
ANKRD40	SID134319192	-1.25	-1.6	-1.02	-1.12
SYNGR2	SID134316226	1	0.9	1.09	1.01
LOC341720 (retired record)	SID134325161	0.19	0.26	0.2	0.1
LOC388847 (retired record)	SID134329080	1.82	1.51	1.98	1.97
ASB13	SID134317179	-0.88	-0.61	-1.03	-1
RASGRP4	SID134317650	-0.51	-0.55	-0.34	-0.66
SEMA4F	SID134310044	0.01	-0.36	0.15	0.24
DSCR9	SID134321019	0.1	0.13	0.18	-0.02
GPR45	SID134311018	-1.38	-1.49	-1.33	-1.33
LINC00272	SID134327029	0.29	-0.03	0.37	0.53
CHODL	SID134321148	-0.05	-0.42	0.11	0.16
TAOK2	SID57288958	0.81	0.61	0.82	1.01
NUBP2	SID134310580	0.75	0.38	1.05	0.81
NEFH	SID134322974	-0.43	-0.58	-0.49	-0.22
EIF3F	SID134323318	-1.88	-1.79	-2	-1.87
LRRC28	SID134323165	1.06	1.2	1.04	0.94
NPL	SID134313113	-0.22	-0.31	-0.45	0.11
IGHV1OR15-1	SID134328618	-0.91	-1.05	-0.64	-1.03
USP38	SID134311507	0.48	0.43	0.53	0.47
ITGB5	SID134310279	0.23	0	0.21	0.49
SPDYC	SID134328259	-0.7	-0.51	-0.83	-0.76
MSRB3	SID134325012	-0.13	-0.19	-0.09	-0.11
GP1BA	SID134315409	0.12	0.23	0.13	-0.01
RBM28	SID134324752	-1.04	-1.16	-0.93	-1.02
SLIT2	SID134323615	0.65	0.58	0.77	0.61
TKTL2	SID134310600	-1.67	-1.62	-1.33	-2.05
C19orf12	SID134318833	-0.08	-0.14	-0.01	-0.09
ZNF417	SID134320202	0.16	-0.42	-0.09	1.01
PIGK	SID134311421	-0.51	-0.58	-0.45	-0.5
